Results of unrelated studies side by side (data: NIAID ChemDB).

Shared fields: whole-cell or culture tests; organism: Mycobacterium tuberculosis

ECn: concentration that inhibits the pathogen or its effect by n%. Percent inhibition refers to the dose given; in toxicity tests it is the harm to the cells. a–b is a range or a potency band. MIC50, MIC90 and the like: level of inhibition, or share of isolates inhibited. Zones are inhibition diameters on agar. Neighbouring rows are from separate reports. MIC bound: limit read from a one-dose screen. Blank or dashed fields: not listed here.

SMILES	cells	strain or isolate	method	tested at	read-out	mutations	result
O=C(O)c1cn(C2CC2)c2cc(N3CCNCC3)c(F)cc2c1=O		H37Rv	agar diffusion / visual reading	10000 µg/mL	zone		27 mm
CN(C)c1cc(NC(=O)CNC(C)(C)C)c(O)c2c1C[C@H]1C[C@H]3[C@H](N(C)C)C(=O)C(C(N)=O)=C(O)[C@@]3(O)C(=O)C1=C2O		H37Rv	turbidity		MIC		6.3 µg/mL
CC1=CCC/C(C)=C/[C@H]2OC(=O)[C@@H](C)[C@@H]2CC1					MIC		128 µg/mL
CCOC(=O)c1cc(CNc2cc(C)cc(C)c2)on1		H37Rv	low oxygen		MIC		14.4 µM
COc1cc(/C=C/C(=O)c2cnccn2)ccc1O		H37Rv			EC50		>12.5 µg/mL
Cc1n[nH]c(=S)n1/N=C/c1cccc(Cl)c1F		H37Rv	agar diffusion / visual reading	10000 µg/mL	zone		13.5 mm
CN(C)c1ccc(/C=C/C(=O)c2cnccn2)cc1		H37Rv			EC50		>12.5 µg/mL
CCOC(=O)c1cc(CN(C)c2ccc(C(F)(F)F)cc2)on1		H37Rv	low oxygen		MIC		6.4 µM
CC[C@H]1OC(=O)[C@H](C)[C@@H](O[C@H]2C[C@@](C)(OC)[C@@H](O)[C@H](C)O2)[C@H](C)[C@@H](O[C@@H]2O[C@H](C)C[C@H](N(C)C)[C@H]2O)[C@](C)(O)C[C@@H](C)CN(C)[C@H](C)[C@@H](O)[C@]1(C)O		ATCC 35826			MBC		>8 µg/mL
CCC(C)[C@H](NC(=O)CCC(C)[C@H]1CCC2C3CCC4C[C@H](O)CC[C@]4(C)C3C[C@H](O)[C@@]21C)C(=O)OCc1cn(CC2OC(n3ccc(=O)[nH]c3=O)[C@@H]3OC(C)(C)O[C@H]23)nn1		H37Rv	resazurin		MIC		14.65 µM
CC(=O)Nc1ccc(S(=O)(=O)N/N=C/c2ccc(Cl)c(Cl)c2)cc1		H37Rv	BACTEC	12.5 µg/mL	inhibition		19%
Cc1cc2nc(CCC3CCCCC3)[nH]c2cc1C		H37Rv	visual reading / absorbance		MIC90	4/3 MmpL3 (V195A)	2.9 µM
COc1cc2nccc3c4ccccc4n(c1=O)c23		H37Rv	resazurin		MIC bound		>6.25 µg/mL
CC(CCC(=O)N[C@@H](C)C(=O)OCc1cn(CC2OC(n3cnc4c(N)ncnc43)[C@@H]3OC(C)(C)O[C@H]23)nn1)[C@H]1CCC2C3C(C[C@H](O)[C@@]21C)[C@@]1(C)CC[C@@H](O)CC1C[C@H]3O		H37Rv	resazurin		MIC		7.35 µM
O=C1C=C(Nc2ccc([N+](=O)[O-])cc2Cl)c2ccccc2C1=O		H37Rv	resazurin	6.25 µg/mL	inhibition		65%
NNC(=O)c1ccncc1		4S			MIC		0.1 µg/mL
C=C1C(=O)O[C@H]2[C@H]1CC/C(C)=C/CC[C@@]1(C)O[C@@H]21					MIC		16 µg/mL
CC(c1ccccc1)C1(C)NC(=O)NC1=O		H37Rv	BACTEC		MIC bound		>12.5 µg/mL
CCOC(=O)c1cccnc1-c1ncccc1C(=O)OCC		H37Rv	resazurin		MIC		>6.25 µg/mL
CC(CCC(=O)N[C@@H](C)C(=O)OCc1cn(CC2OC(n3ccc(=O)[nH]c3=O)[C@@H]3OC(C)(C)O[C@H]23)nn1)[C@H]1CCC2C3CCC4C[C@H](O)CC[C@]4(C)C3C[C@H](O)[C@@]21C		H37Rv	resazurin		MIC		15.41 µM
C=C1CC[C@@H](O)[C@]2(C)CC[C@H]3C(=C)C(=O)O[C@@H]3[C@@H]12					MIC		64 µg/mL
CC(C)COC(=O)c1cccnc1-c1ncccc1C(=O)OCC(C)C		H37Rv	resazurin		MIC		>6.25 µg/mL
C=C1C(=O)O[C@@H]2/C=C(\C)CC/C=C(\C)CC[C@@H]12					MIC		32 µg/mL
O=C1C=C[C@@H](COC2OC(CO)C(O)C(O)C2O)O1		H37Rv	BACTEC		MIC bound		≤12.5 µg/mL
CO[C@H]1/C=C/O[C@@]2(C)Oc3c(C)c(O)c4c(O)c(c(/C=N/N5CCN(C)CC5)c(O)c4c3C2=O)NC(=O)/C(C)=C\C=C\[C@H](C)[C@H](O)[C@@H](C)[C@@H](O)[C@@H](C)[C@H](OC(C)=O)[C@@H]1C		10 isolates			MIC		>32 µg/mL
C[C@H]1C[C@H](N)CN1c1cc2c(cc1F)c(=O)c(C(=O)O)cn2-c1ccc(F)cc1F		ATCC 35826			MIC		1 µg/mL
CC1=C(C)C2C=CC(N(C)C)=CC2NC1=O		H37Rv	BACTEC		MIC bound		>12.5 µg/mL
COC(=O)c1cccnc1-c1ncccc1C(=O)OC		H37Rv	resazurin		MIC		>6.25 µg/mL
CC(C)Cc1cnc(C(=O)/C=C/c2ccc(N(C)C)cc2)cn1		H37Rv			EC50		>12.5 µg/mL
CC(C)OC(=O)c1ccc(CCC2=CC(=O)C(Br)=CC2=O)cc1		H37Rv	resazurin	6.25 µg/mL	inhibition		-4%
CN[C@@H]1[C@H](O)[C@H](NC)[C@H]2O[C@@]3(O)C(=O)C[C@@H](C)O[C@H]3O[C@@H]2[C@H]1O		H37Rv	turbidity		MIC		100–200 µg/mL
CC[C@H]1OC(=O)[C@H](C)[C@@H](O[C@H]2C[C@@](C)(OC)[C@@H](O)[C@H](C)O2)[C@H](C)[C@@H](O[C@@H]2O[C@H](C)C[C@H](N(C)C)[C@H]2O)[C@](C)(O)C[C@@H](C)C(=O)[C@H](C)[C@@H](O)[C@]1(C)O		ATCC 35827			MBC		>8 µg/mL
CCOC(=O)c1cc(CNc2cc(F)ccc2F)on1		H37Rv	low oxygen		MIC		15.2 µM
C/C=C(/C)C(=O)O[C@@H]1C=C(C)CC[C@H]2[C@H](C)C(=O)O[C@@H]2/C=C(\C)C1					MIC		>128 µg/mL
CO/C(=N\N=C\c1ccc(Cl)cc1Cl)c1ccncc1			BACTEC	0.5 µM	inhibition		0%
CCc1ccccc1NC(=O)c1c(C)n([O-])c2ccc(C)cc2[n+]1=O	VERO	H37Rv	resazurin		EC90		8.62 µg/mL
Brc1ccc2nc(CCC3CCCCC3)[nH]c2c1		H37Rv	visual reading / absorbance		MIC90	6A MmpL3 (V684A)	22.8 µM
C[C@H]1COc2c(N3CCN(C)CC3)c(F)cc3c(=O)c(C(=O)O)cn1c23		3S			MIC		0.5 µg/mL
CNC(=O)OCc1nc(-c2ccccc2)oc1COC(=O)NC		H37Rv	BACTEC	12.5 µg/mL	inhibition		-14%
O=C(NN=C1CCCCC1)c1ccncc1		Rifampicin-resistant			MIC		0.05 µg/mL
Cc1n[nH]c(=S)n1/N=C/c1ccc(F)c(Br)c1		H37Rv	agar diffusion / visual reading	10000 µg/mL	zone		11.25 mm
CCOC(=O)c1cc(CNc2ccc(F)cc2F)on1		H37Rv	resazurin		MIC		10.9 µM
CC1=CCC[C@@]2(C)O[C@H]2[C@H]2OC(=O)[C@@H](C)[C@@H]2CC1					MIC		128 µg/mL
CCOC(=O)c1cc(-c2ccc(CO)cc2)on1		H37Rv	low oxygen		MIC		48.7 µM
CCCCCOCC(O)CNCCNCC(O)COCCCCC		H37Rv		6.25 µg/mL	inhibition		9%
Cc1c(F)c(N2CCNC(C)C2)cc2c1c(=O)c(C(=O)O)cn2C1CC1		33 clinical isolates			MIC90		1 µg/mL
CN[C@@H]1[C@H](O[C@H]2[C@H](O[C@H]3[C@H](O)[C@@H](O)[C@H](N=C(N)N)[C@@H](O)[C@@H]3N=C(N)N)O[C@@H](C)[C@]2(O)C=O)O[C@@H](CO)[C@H](O)[C@H]1O		H37Rv	visual reading		MIC90		1.4 µM
CCOC(=O)c1cc(CNc2cc(C(F)(F)F)nc3c(C(F)(F)F)cccc23)on1		H37Rv	resazurin		MIC		6.9 µM
C=C1CC[C@@H](O)[C@]2(C)CC[C@@H](C(=C)CO)[C@H](O)[C@@H]12					MIC		>128 µg/mL
CCC(C)[C@H](NC(=O)CCC(C)[C@H]1CCC2C3C(C[C@H](O)[C@@]21C)[C@@]1(C)CC[C@@H](O)CC1C[C@H]3O)C(=O)OCc1cn(CC2OC(n3cnc4c(N)ncnc43)[C@@H]3OC(C)(C)O[C@H]23)nn1		H37Rv	resazurin		MIC		7.01 µM
NNC(=O)CNc1ccccc1F		H37Rv	BACTEC	12.5 µg/mL	inhibition		40%
CC(=O)O[C@H]1CC[C@]2(C)[C@H]3CC=C4C5[C@@H](C)[C@H](C)CC[C@]5(C)CC[C@@]4(C)[C@]3(C)CC[C@H]2C1(C)C		H37Rv (ATCC 27294)	resazurin		MIC90		62.5 µg/mL
CCCCc1cnc(C(=O)/C=C/c2ccc(O)cc2)cn1		H37Rv			EC50		<12.5 µg/mL
CCCC/C=C/C(=O)N[C@@H](Cc1cc(F)cc(F)c1)C(=O)N[C@H]1COC(=O)[C@@H]2C[C@@H](C)CN2C(=O)[C@H](C)NC(=O)[C@@H]2CCCCN2C(=O)[C@@H]2CCCN2C1=O		H37Rv	turbidity		MIC		>20 µg/mL
O=c1[nH][nH]c2ncccc12		H37Rv	BACTEC		MIC bound		>12.5 µg/mL
CCOC(=O)c1cc(CN(C)c2ccc(OC(F)(F)F)cc2)on1		H37Rv			MIC		0.7 µM
CC1/C(=N/O)CC(c2ccccc2)N(N=O)C1c1ccccc1		H37Rv	resazurin		MIC bound		>6.25 µg/mL
CCOC(=O)c1cc(-c2ccc(OC(F)(F)F)cc2)on1		H37Rv	low oxygen		MIC		17.6 µM
Cc1ccc2c(c1)[n+](=O)c(C(=O)NCc1ccc(C(F)(F)F)cc1)c(C)n2[O-]		H37Rv	resazurin		EC90		>100 µg/mL
C[C@@H]1C(=O)O[C@H]2[C@H]1CCC1(C)O[C@@H]1CC[C@@]1(C)O[C@@H]21					MIC		128 µg/mL
CN[C@H](CC(C)C)C(=O)N[C@H]1C(=O)N[C@@H](CC(N)=O)C(=O)N[C@H]2C(=O)N[C@H]3C(=O)N[C@H](C(=O)N[C@H](C(=O)O)c4cc(O)cc(O)c4-c4cc3ccc4O)[C@H](O)c3ccc(c(Cl)c3)Oc3cc2cc(c3O[C@@H]2O[C@H](CO)[C@@H](O)[C@H](O)[C@H]2O[C@H]2C[C@](C)(N)[C@H](O)[C@H](C)O2)Oc2ccc(cc2Cl)[C@H]1O		H37Rv	turbidity		MIC		50 µg/mL
NC1CCN(c2c(F)cc3c(=O)c(C(=O)O)cn(C4CC4)c3c2Cl)C1		DRUG-SUS			MIC50		0.125 µg/mL
CCOC(=O)c1cc(CNc2cccc(OC(F)(F)F)c2)on1		H37Rv	low oxygen		MIC		33.3 µM
NC[C@H]1O[C@H](O[C@H]2[C@H](O)[C@@H](O[C@H]3O[C@H](CO)[C@@H](O)[C@H](N)[C@H]3O)[C@H](N)C[C@@H]2N)[C@H](O)[C@@H](O)[C@@H]1O					MIC		5 µg/mL
CC1Nc2c(ccc3ncccc23)C(=O)N1Nc1ccccc1		H37Rv	BACTEC		MIC		≥12.5 µg/mL
NC(=O)c1cnccn1		H37Rv	agar diffusion / visual reading	10000 µg/mL	zone		30 mm
O=C1C[C@@H](c2ccccc2)NCCCCN(O)CCCN1		H37Rv	BACTEC		MIC bound		>12.5 µg/mL
CCc1ccccc1NC(=O)c1c(C)n([O-])c2ccc(Cl)cc2[n+]1=O	VERO	H37Rv	resazurin		EC90		<0.2 µg/mL
O=C(O)CNC(CO)C(=O)O		H37Rv	BACTEC		MIC bound		>12.5 µg/mL
CC1CN(c2cc3c(cc2F)c(=O)c(C(=O)O)cn3-c2ccc(F)cc2F)CCN1		ATCC35838			MBC		1 µg/mL
CC(C)N1CC(=O)N2CSCC2C1=O		H37Rv	BACTEC		MIC bound		>12.5 µg/mL
CC(CCC(=O)OCc1cn(CC2OC(n3cnc4c(N)ncnc43)[C@@H]3OC(C)(C)O[C@H]23)nn1)[C@H]1CCC2C3CCC4C[C@H](O)CC[C@]4(C)C3C[C@H](O)[C@@]21C		H37Rv	resazurin		MIC		4.09 µM
Cl.Cl.N=C(N)c1ccc2oc3ccc(C(=N)N)cc3c(=O)c2c1		H37Rv	BACTEC	12.5 µg/mL	inhibition		0%
CC(CCC(=O)OCc1cn(CC2OC(n3cnc4c(N)ncnc43)[C@@H]3OC(C)(C)O[C@H]23)nn1)[C@H]1CCC2C3C(C[C@H](O)[C@@]21C)[C@@]1(C)CC[C@@H](O)CC1C[C@H]3O		H37Rv	resazurin		MIC		8.02 µM
O=C(N/N=C/c1cccc2ccccc12)c1ccc(O)cc1		H37Rv	BACTEC		MIC bound		>12.5 µg/mL
CCc1ccccc1NC(=O)c1c(C)n([O-])c2cc(Cl)c(Cl)cc2[n+]1=O	VERO	H37Rv	resazurin		EC90		<0.19 µg/mL
Cc1ccc(NC(=O)Oc2cc(C)c(I)cc2C)cc1Cl		H37Rv	BACTEC	12.5 µg/mL	inhibition		-1%
Cc1n[nH]c(=S)n1/N=C/c1cc(F)c(F)c(F)c1		H37Rv	agar diffusion / visual reading	10000 µg/mL	zone		12.6 mm